Mutational scan of HIV-1 Vif (LAI) in cells with APOBEC3G

From the data files of Langley et al. 2025, preprint, doi:10.1101/2025.10.20.683452.

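Pooled viruses with one designed change each in Vif went through two 72 h rounds in SupT1 cells expressing APOBEC3G. Frequencies after the second round, in three biological replicates, were compared with the merged pool after the first round.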

Scanned stretch, residues 12 to 115 of Vif from HIV-1 LAI (a laboratory-adapted subtype B strain):
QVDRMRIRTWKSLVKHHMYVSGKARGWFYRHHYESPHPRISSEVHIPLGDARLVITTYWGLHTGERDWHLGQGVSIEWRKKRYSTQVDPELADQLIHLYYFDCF

Values are log2 enrichment relative to wild type (0); lower means weaker defence against APOBEC3G and poorer growth. Substitutions are written as wild-type residue, site number, new residue. The median of three replicates is given, with the replicates in brackets. Input reads are the counts in the merged round-one pool, before selection. The scan is noisy: the rank correlation of replicates is about 0.4 to 0.65, and variants with under about 50 input reads tend to read too high. The authors note that some positive scores may be noise, and some enriched variants failed when tested singly. Not every substitution is listed.

| change | input reads | median log2 enrichment |
|---|---|---|
| Q12A | 355 | -3.13 (-4.24 -2.48 -3.13) |
| Q12T | 479 | -2.82 (-2.80 -3.52 -2.82) |
| V13D | 464 | -2.60 (-2.77 -2.30 -2.60) |
| V13E | 361 | -1.11 (-1.11 1.60 -1.80) |
| M16S | 366 | -3.48 (-1.48 -3.50 -3.48) |
| R19A | 178 | -0.43 (3.40 -1.98 -0.43) |
| T20Q | 1255 | -0.31 (-0.36 -0.31 1.01) |
| W21K | 467 | -3.04 (-3.04 -3.72 -1.55) |
| K22I | 24 | 1.48 (1.48 1.50 -2.45) |
| S23Y | 864 | -3.33 (-3.20 -4.72 -3.33) |
| K26S | 144 | 3.33 (0.75 3.33 3.66) |
| H27Q | 233 | -1.75 (-1.75 -1.52 -2.89) |
| H28C | 95 | 1.30 (1.30 4.43 0.56) |
| M29H | 365 | -1.48 (-0.57 -2.38 -1.48) |
| M29T | 431 | -1.72 (-2.01 0.58 -1.72) |
| Y30C | 1173 | -3.48 (-3.48 -4.28 -2.87) |
| Y30G | 348 | -0.75 (-0.39 -2.61 -0.75) |
| Y30H | 396 | -0.79 (-0.79 -0.24 -1.30) |
| S32F | 642 | 1.22 (2.48 1.22 -0.85) |
| S32N | 61 | -3.28 (-3.28 -2.48 -3.73) |
| G37T | 45 | 0.59 (0.59 -1.43 4.14) |
| G37W | 389 | -2.43 (0.01 -2.43 -2.53) |
| H43C | 851 | -4.36 (-2.84 -4.58 -4.36) |
| Y44R | 453 | -2.75 (-2.27 -3.95 -2.75) |
| E45H | 57 | 1.07 (1.07 4.31 -1.29) |
| S46C | 52 | -1.19 (0.15 -1.19 -1.23) |
| P47T | 1416 | -1.95 (-1.86 -3.92 -1.95) |
| H48L | 414 | -2.61 (-0.16 -3.43 -2.61) |
| P49V | 18 | 1.68 (0.03 4.93 1.68) |
| I51E | 207 | -3.46 (-3.46 -3.90 -1.43) |
| I51H | 215 | -0.71 (-0.71 2.12 -0.82) |
| I51W | 412 | -3.70 (-3.72 -1.83 -3.70) |
| V55I | 442 | -3.92 (-3.83 -3.92 -4.29) |
| H56N | 544 | -1.56 (-1.56 -2.73 -0.68) |
| I57H | 20 | -1.71 (-1.71 2.37 -2.18) |
| L59A | 109 | 0.89 (2.23 -1.98 0.89) |
| L59I | 400 | 0.40 (0.40 0.86 -0.85) |
| A62C | 896 | -3.51 (-3.28 -3.99 -3.51) |
| T67W | 913 | -2.95 (-2.95 -4.55 -0.96) |
| T68G | 34 | -0.16 (-0.16 5.46 -0.58) |
| T68Q | 1592 | -1.50 (-2.13 -1.50 0.29) |
| W70A | 479 | -1.61 (-1.61 -2.42 1.00) |
| W70C | 114 | -1.86 (-1.02 -2.15 -1.86) |
| G71I | 271 | -1.74 (-1.74 -1.23 -2.75) |
| G71N | 833 | -4.08 (-2.66 -4.13 -4.08) |
| G71Q | 48 | -1.85 (2.00 -4.98 -1.85) |
| T74F | 1600 | -2.23 (-1.73 -3.57 -2.23) |
| T74S | 511 | -1.49 (-1.49 1.31 -2.57) |
| G75I | 721 | -1.58 (-1.58 0.59 -2.80) |
| G75L | 225 | -1.73 (-1.73 2.72 -1.74) |
| R77A | 68 | 0.87 (-0.30 4.15 0.87) |
| R77N | 25 | 1.79 (1.13 5.62 1.79) |
| R77P | 342 | 0.28 (0.28 -1.69 5.26) |
| D78S | 39 | 0.61 (0.50 5.03 0.61) |
| L81S | 409 | -1.80 (-1.80 1.31 -2.34) |
| S86D | 995 | -2.08 (-2.08 -3.48 -1.95) |
| S86P | 199 | 2.49 (2.49 -0.56 6.28) |
| I87V | 883 | -1.84 (-3.25 -1.83 -1.84) |
| E88Q | 1122 | -3.58 (-3.58 -0.91 -3.71) |
| E88W | 404 | -4.90 (-4.43 -5.70 -4.90) |
| W89H | 417 | -3.75 (-3.75 -4.62 -3.69) |
| W89Y | 154 | -1.83 (-1.83 -2.25 -0.67) |
| R90P | 47 | -2.64 (-2.95 -2.64 -1.82) |
| K92P | 19 | 2.00 (2.08 -2.09 2.00) |
| T96H | 140 | -1.31 (-1.31 -4.19 -0.84) |
| T96Q | 431 | -2.46 (-4.52 1.39 -2.46) |
| V98E | 386 | -3.72 (-3.63 -3.72 -4.10) |
| D99F | 393 | -3.66 (-3.66 -4.09 -1.92) |
| D99V | 28 | 4.96 (1.26 4.96 5.01) |
| E101C | 298 | -2.74 (-2.74 -4.18 -2.14) |
| A103E | 105 | -2.95 (-1.74 -3.29 -2.95) |
| I107T | 313 | 3.33 (3.33 3.35 1.90) |
| H108T | 31 | -2.34 (-2.34 -4.34 -1.20) |
| Y110C | 127 | -2.02 (-2.02 -2.45 -1.64) |
| Y110R | 371 | -1.25 (-1.25 1.32 -1.96) |

8 of these entries, quoted again:

| change | input reads | median log2 enrichment |
|---|---|---|
| V55I | 442 | -3.92 (-3.83 -3.92 -4.29) |
| I51H | 215 | -0.71 (-0.71 2.12 -0.82) |
| Q12A | 355 | -3.13 (-4.24 -2.48 -3.13) |
| H108T | 31 | -2.34 (-2.34 -4.34 -1.20) |
| S23Y | 864 | -3.33 (-3.20 -4.72 -3.33) |
| E88W | 404 | -4.90 (-4.43 -5.70 -4.90) |
| Y110C | 127 | -2.02 (-2.02 -2.45 -1.64) |
| K92P | 19 | 2.00 (2.08 -2.09 2.00) |